Taken from: PubChem BioAssay AID1259414 (Drosophila RNAi Screening Center, 2018)
The screen tested about 24,000 reagents; shown is an unselected part of those with a known target gene and a result. In the full data, about 1,210 (5%) got an active call. 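Inactive calls also include excluded dsRNAs with several or no targets, genes unexpressed in JW18, and well A1, regardless of score.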 Names joined by + are all predicted targets of the reagent. Reagent sequences are not shown.

Screen: 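Host factors increasing or decreasing Wolbachia levels in cultured fly cells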 (primary screen)
System: Drosophila JW18 cells infected with Wolbachia
Reagents: long dsRNA against Drosophila genes, 0.25 µg dsRNA per well of a 384-well plate
Duration: 5 days
Treatment: cells persistently infected with Wolbachia before knock-down; no added drug
Measured: 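Automated imaging of bacterial rRNA staining divided by host cell count, reported as plate-normalised robust z-score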
Reading the numbers: Wolbachia per cell robust z: higher = more Wolbachia per host cell than the plate typical
Active means: 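Hit when robust z is 1.5 or more, or -1.5 or less, in at least two of three replicates; excludes dsRNAs with several or no targets, genes not expressed in JW18 and well A1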

| predicted target | DRSC id | Wolbachia per cell robust z, rep 1 | Wolbachia per cell robust z, rep 2 | Wolbachia per cell robust z, rep 3 | activity call |
| --- | --- | --- | --- | --- | --- |
| SNCF | DRSC10115 | -1.48 | 0.0565 | -0.918 | inactive |
| CG31391 | DRSC16047 | 0.0769 | -2.54 | -0.0196 | inactive |
| CG12105 | DRSC08255 | -0.321 | 1.27 | 2.03 | inactive |
| CG12105 | DRSC24635 | -0.0281 | 0.587 | -1.67 | inactive |
| CR18217 | DRSC21506 | -0.772 | -1.01 | -0.449 | inactive |
| Vha100-3 | DRSC05760 | -0.1 | 0.00115 | 0.533 | inactive |
| fd59A | DRSC04685 | -0.319 | 0.0909 | 0.181 | inactive |
| fd59A | DRSC25524 | 0.363 | -8.83 | 0.619 | inactive |
| Gnpnat | DRSC15405 | -0.416 | 0.046 | 0.259 | inactive |
| Mst89B | DRSC16748 | -0.477 | 0.777 | -0.556 | inactive |
| CG31436 | DRSC14661 | -5.03 | -0.793 | 0.573 | inactive |
| CG31436 | DRSC24566 | 0.604 | 0.135 | -0.112 | inactive |
| ebd2 | DRSC11682 | -1.55 | 0.107 | -2.93 | active |
| ebd2 | DRSC28502 | 1.16 | 0.0278 | -1.97 | inactive |
| Yp2 | DRSC18732 | 0.358 | -0.0508 | -0.397 | inactive |
| Yp2 | DRSC29289 | -1.69 | -2.24 | -1.45 | inactive |
| CG12672 | DRSC19482 | -0.428 | -0.163 | -2.46 | inactive |
| CG12672 | DRSC24282 | -6.27 | -0.338 | -1.17 | inactive |
| CG15478 | DRSC18057 | 0.22 | -1.65 | 0.387 | inactive |
| CG15478 | DRSC25277 | -1.11 | 1.38 | -9.48 | inactive |
| CG9281 | DRSC20179 | -3.99 | 0.0791 | -2.45 | active |
| CG9281 | DRSC24522 | -1.76 | -0.00828 | 1.95 | inactive |
| Cyt-c-p | DRSC03310 | 0.642 | 0.686 | -1.66 | inactive |
| MED23 + CG3700 | DRSC04406 | -2.5 | -4.59 | 0.889 | active |
| MED23 + CG3700 | DRSC04407 | 0.599 | 1.02 | 0.985 | inactive |
| Pcd | DRSC16785 | 0.0754 | -0.367 | -0.998 | inactive |
| His3:CG33863 + His3:CG33806 + His3:CG33857 + 21 more | DRSC27099 | 2.74 | 5.2 | 7.72 | inactive |
| Fibp | DRSC11031 | -0.885 | -0.578 | -4.57 | inactive |
| Fibp | DRSC26529 | -2.15 | -1.59 | -0.725 | active |
| dgt2 | DRSC02548 | 1.16 | 1.37 | 1.45 | inactive |
| dgt2 | DRSC29741 | 0.439 | -0.797 | 0.535 | inactive |
| Rrp45 | DRSC20198 | -0.514 | -1.08 | 0.256 | inactive |
| Rrp45 | DRSC29319 | 0.373 | -1.68 | 0.328 | inactive |
| Dyb | DRSC07208 | -1.37 | 0.157 | 0.278 | inactive |
| Dyb | DRSC22862 | -1.12 | -0.429 | -0.445 | inactive |
| Dyb | DRSC29699 | -1.71 | 0.874 | -8.52 | active |
| CG7567 | DRSC16258 | -5.32 | -0.801 | -2.53 | inactive |
| CG6280 | DRSC06972 | -2.4 | 1.75 | 0.204 | inactive |
| Rsph3 | DRSC09696 | -0.783 | -0.244 | 0.335 | inactive |
| Rsph3 | DRSC10211 | -1.78 | -0.737 | -4.54 | inactive |
| Rsph3 | DRSC26917 | -1.78 | -0.788 | -0.914 | inactive |
| Gapvd1 | DRSC19752 | 0.881 | -1.67 | 0.584 | inactive |
| Gapvd1 | DRSC24025 | -8.33 | -0.632 | -9.68 | active |
| CG9083 + Tpc2 | DRSC04625 | 1.26 | 0.487 | -0.13 | inactive |
| Bet1 | DRSC10088 | -0.741 | 1.79 | -0.249 | inactive |
| Lamtor1 | DRSC10183 | 0.221 | -0.557 | 0.536 | inactive |
| CG16998 | DRSC10235 | -0.239 | -0.689 | -0.509 | inactive |
| CG43347 | DRSC23007 | -0.429 | -1.61 | -6.12 | active |
| CG43347 | DRSC23170 | 0.444 | 0.539 | -3.13 | inactive |
| CG43347 | DRSC25782 | -1.39 | -0.745 | 0.361 | inactive |
| CG43347 | DRSC29367 | -1.17 | -3.63 | 0.309 | inactive |
| CG2938 | DRSC18243 | -0.233 | -1.9 | 2.03 | inactive |
| CG2938 | DRSC27919 | -1.08 | -1 | -0.375 | inactive |
| SCOT | DRSC08186 | -1.87 | 1.46 | 0.871 | inactive |
| SCOT | DRSC26521 | -0.513 | -1.02 | 0.395 | inactive |
| Pex1 | DRSC11358 | 0.948 | -0.279 | -0.507 | inactive |
| CG13870 | DRSC06429 | 0.111 | -2.11 | -4.77 | inactive |
| hpRNA:CR18854 | DRSC02702 | -0.951 | 0.595 | -0.4 | inactive |
| hpRNA:CR18854 | DRSC29809 | 0.163 | -0.315 | -1.77 | inactive |
| Atg4a | DRSC00656 | 0.316 | -0.307 | -0.44 | inactive |
| Atg4a | DRSC28580 | -1.01 | -1.21 | -8.32 | inactive |
| Acp53C14a | DRSC07224 | -0.951 | 0.707 | 0.0335 | inactive |
| ppk29 | DRSC04205 | -0.325 | -0.139 | -0.961 | inactive |
| Rbp1-like | DRSC19828 | -2.15 | 0.589 | -2.92 | active |
| Rbp1-like | DRSC21938 | -1.16 | -2.3 | -0.359 | inactive |
| Rbp1-like | DRSC22075 | -0.323 | 0.169 | 0.772 | inactive |
| Rbp1-like | DRSC25442 | -0.678 | -0.482 | -6.31 | inactive |
| Rbp1-like | DRSC26949 | 0.0758 | 0.275 | 0.396 | inactive |
| CG9686 | DRSC18439 | -1.18 | -1.7 | -0.433 | inactive |
| CG9686 | DRSC28497 | 0.731 | 0.371 | -0.13 | inactive |
| Nedd8 | DRSC02092 | 3.86 | 3.12 | 2.31 | active |
| CG13313 | DRSC09984 | -0.884 | 1.18 | -2.84 | inactive |
| CG13313 | DRSC28463 | 0.0707 | 0.268 | -0.783 | inactive |
| Ir67b | DRSC09876 | -1.01 | -1.26 | -0.0337 | inactive |
| CG33271 | DRSC10583 | -0.136 | 0.523 | 1.8 | inactive |
| CG15283 | DRSC01980 | 0.455 | 0.0805 | -1.25 | inactive |
| CG15283 | DRSC41535 | -0.458 | 0.193 | 1.6 | inactive |
| Maf1 | DRSC37750 | 0.966 | 1.15 | 0.675 | inactive |
| Maf1 | DRSC38594 | 1.1 | 2.69 | 0.664 | inactive |
| Diap1 | DRSC11404 | 0.477 | 0.7 | -0.409 | inactive |
| Mgstl + CR12628 | DRSC03702 | -0.549 | 0.584 | 0.775 | inactive |
| Dim1 | DRSC00563 | 0.203 | 0.596 | 1.23 | inactive |
| CG8814 | DRSC00707 | -0.15 | 0.462 | -1.19 | inactive |
| CG8814 | DRSC25994 | 0.168 | -0.107 | -0.24 | inactive |
| bic | DRSC07584 | -1.65 | 0.00777 | -1.12 | inactive |
| bic | DRSC25656 | 0.579 | -10.2 | 0.485 | inactive |
| Magi | DRSC04247 | 0.263 | 0.361 | -0.536 | inactive |
| Magi | DRSC04451 | 0.772 | -0.195 | 0.0413 | inactive |
| Magi | DRSC26209 | -1.26 | -0.404 | -0.522 | inactive |
